Test results reported in PMC6753678, “Fueling Open Innovation for Malaria Transmission-Blocking Drugs: Hundreds of Molecules Targeting Early Parasite Mosquito Stages” (Frontiers in Microbiology, 2019).

System: P. falciparum female gametocytes
Test: P. falciparum female gametogenesis assay (Pf FGAA)
[1] = unified cytotox / Pf FGAA IC50, red: <10-fold selectivity, green: >10-fold
[2] = unified cytotox / Pf FGAA IC50, <10-fold selectivity red, >10-fold green
[3] = unified cytotox / IC50, <10-fold red, >10-fold green

## CN1CCc2cc(NS(=O)(=O)c3ccc(-c4ccc(Cl)cc4)cc3)c(OCCCN3CCCCC3)cc2CC1.Cl [TCMDC-141754]
[1]
  Assay tox ratio Pf FGAA: 2.30

## FC(F)(F)c1cnc(Sc2nnc(-c3ccncc3)o2)c(Cl)c1 [TCMDC-123767]
[2]
  Assay tox ratio Pf FGAA: 615.29

## CN1CCN(c2ccc(Nc3ncc([N+](=O)[O-])c(Nc4ccccc4O)n3)cc2)CC1.O=C(O)C(F)(F)F [TCMDC-141372]
[1]
  Assay tox ratio Pf FGAA: 0.91

## CN1CCN(CCCNCc2ccccc2-c2cccc(CNCc3ccc4c(c3)OCO4)c2)CC1.O=C(O)C(F)(F)F [TCMDC-140476]
[1]
  Assay tox ratio Pf FGAA: 0.92

## CCN1CCN(c2ccc(Nc3c4ccccc4nc4ccccc34)cc2)CC1 [TCMDC-124255]
[2]
  Assay tox ratio Pf FGAA: 4.56

## CCc1c(CCNCCCCCCNCCc2ccc3c(c2C)OCO3)ccc2c1OCO2.Cl [TCMDC-132093]
[2]
  Assay tox ratio Pf FGAA: 3.81

## COc1ccccc1C1CCN(C2CCC(NC(=O)c3ccc4[nH]c(-c5ccc(C)cc5)nc4c3)CC2)CC1 (stereo not drawn) [TCMDC-133556]
[2]
  Assay tox ratio Pf FGAA: 1.60

## CC(C)(C)c1cc(NC2CC2)nc(-c2ccccn2)n1 [TCMDC-125826]
[2]
  Assay tox ratio Pf FGAA: 856.97

## CCN1CCC2(c3cccc(OC)c3)Cc3nc4ccccc4c(-c4ccccc4)c3CC2C1 (stereo not drawn) [TCMDC-138968]
[1]
  Assay tox ratio Pf FGAA: 23.25

## O=C(NCC1CCN(CCN2CCC(c3cn(CCO)c4ccccc34)CC2)CC1)c1ccc(-c2ccc(C(F)(F)F)cc2)cc1 [TCMDC-138856]
[1]
  Assay tox ratio Pf FGAA: 1.83

## CC(=O)Nc1ccc2[nH]cc(C3CCN(CC4CCC(NC(=O)/C=C/c5ccc(Cl)c(Cl)c5)CC4)CC3)c2n1 (stereo not drawn) [TCMDC-140114]
[1]
  Assay tox ratio Pf FGAA: 7.76

## O=C(Nc1ccc(Cl)cc1)c1cc(Cl)cc2nc(C(F)(F)F)[nH]c12 [TCMDC-141586]
[3]
  Assay tox ratio Pf FGAA: 1.43

## COc1ccc(CCNCCCCNCCc2ccc(OC)c3ccccc23)c2ccccc12.CS(=O)(=O)O [TCMDC-137961]
[2]
  Assay tox ratio Pf FGAA: 4.44

## N#CC(c1ccc(Br)cc1)c1ccc2c(C(F)(F)F)cc(C(F)(F)F)nc2n1 (stereo not drawn) [TCMDC-123754]
[2]
  Assay tox ratio Pf FGAA: 2.01

## CCn1c(-c2nonc2N)nc2c(-c3cccc(NC(=O)Nc4ccc(C(F)(F)F)cc4)c3)ncc(OCCCN)c21.O=C(O)C(F)(F)F [TCMDC-136179]
[2]
  Assay tox ratio Pf FGAA: 6.15

## O=C(O)C(F)(F)F.O=S(=O)(NCCN1CCCC1)c1ccc(-c2cccc(CNC3Cc4ccccc4C3)c2)s1 [TCMDC-132217]
[2]
  Assay tox ratio Pf FGAA: 4.26

## CN(/N=C/C=C/c1ccc(Cl)cc1)c1nc(NCCc2ccc(O)cc2)nc(N2CCNCC2)n1 [TCMDC-138546]
[2]
  Assay tox ratio Pf FGAA: 6.73

## COc1ccc(-c2ccccc2)cc1NC(=S)NC1CCC(CN2CCC(c3c[nH]c4ccccc34)CC2)CC1 (stereo not drawn) [TCMDC-140182]
[1]
  Assay tox ratio Pf FGAA: 3.33

## Clc1cccc(C23N=C(Nc4nc5ccccc5[nH]4)NC2(c2ccccc2)NC(Nc2nc4ccccc4[nH]2)=N3)c1 (stereo not drawn) [TCMDC-139089]
[1]
  Assay tox ratio Pf FGAA: 284.85

## COc1cc2nc(Nc3ccc4c(ccn4Cc4ccccc4)c3)nc(Nc3ccc4c(ccn4Cc4ccccc4)c3)c2cc1OC [TCMDC-138237]
[2]
  Assay tox ratio Pf FGAA: 8.95

## CC(C)(C)CNCC(C)(C)c1nc(-c2ccc(Cl)c(O)c2)c(-c2ccncc2)[nH]1.Cl [TCMDC-140549]
[3]
  Assay tox ratio Pf FGAA: 11.71

## Cl.NC1CCN(CCc2ccc(NS(=O)(=O)c3ccc(-c4ccccc4)cc3)cc2)CC1 [TCMDC-134085]
[2]
  Assay tox ratio Pf FGAA: 9.58

## Cl.N[C@@H](CCNC1CCN(c2cccc(C(F)(F)F)c2)CC1)Cc1ccc(F)c(F)c1 [TCMDC-132301]
[2]
  Assay tox ratio Pf FGAA: 8.50

## COc1ccc2nc(N=C3NC4(c5ccccc5)NC(=Nc5nc6ccc(OC)cc6[nH]5)NC4(c4ccccc4)N3)[nH]c2c1.O=C(O)C(F)(F)F (stereo not drawn) [TCMDC-139632]
[1]
  Assay tox ratio Pf FGAA: 529.58

## CCCN(CCC)CCCN(CCCN(CCC)CCC)c1cc(C)nc(Nc2ccc3cc(Br)ccc3c2)n1.Cl [TCMDC-138006]
[2]
  Assay tox ratio Pf FGAA: 3.48

## O=C(Nc1cc(Cl)c(Cl)cc1NC(=O)c1cccc(-c2ccccc2)c1O)c1cccc(-c2ccccc2)c1O [TCMDC-139548]
[1]
  Assay tox ratio Pf FGAA: 2.84

## COc1c(CNCCCCCCNCc2cc(Cl)c3ccccc3c2OC)cc(Cl)c2ccccc12.CS(=O)(=O)O [TCMDC-137958]
[2]
  Assay tox ratio Pf FGAA: 3.92
